Values of other authors in US8536319B2, “Compounds and methods for detecting ricin and uses thereof” (dated 2013).

Target: ricin toxin A-chain (RTA) (Ricinus communis, UniProt P02879)

5′-CGCGCGAGAGCGCG-3′
kcat for the depurination (RTA, GAGA tetraloop site, pH 4.0): 3.65 ± 0.233 s⁻¹ | Km (read-out: Km for its binding, RTA, pH 4.0): 8.1 µM

5′-CGCGCGdAGAGCGCG-3′
rate as substrate of RTA: 1200 min⁻¹
